Results as given in PubChem BioAssay AID1053175 (ICCB-Longwood Screening Facility, Harvard Medical School, 2014).
The entries are a selection whose mix differs from that of the whole data set. Activity calls are given as the source filed them.

Experiment: antibacterial activity against Escherichia coli – OD600, primary screen (AID 1053175)
Details: Escherichia coli growth, OD600, 23 h; active compounds read low

Structure (SMILES) | OD600 absorbance
COc1cc(C(=O)NCC2(N3CCOCC3)CCCCC2)cc(Cl)c1OC(C)C | inactive: 0.691
O=[As](O)(O)c1cccnc1 | inactive: 0.702
CS(=O)(=O)c1ccc(Cl)c(NC(=O)COC(=O)C(O)(c2ccccc2)c2ccccc2)c1 | inactive: 0.728
COc1ccccc1OP(C)(=O)Nc1cccc(Br)c1 (stereo unspecified) | inactive: 0.723
O=C(OC1CN2CCC1CC2)c1ccc(Cl)cc1 (stereo unspecified) | inactive: 0.679
CC1C=CCP(=O)(Oc2ccccc2)O1 (stereo unspecified) | inactive: 0.681
CCOC(=O)c1ccc(NP(C)(=O)Oc2cc(C)cc(C)c2)cc1 (stereo unspecified) | inactive: 0.65
O=[As](O)(c1cccc(O)c1)c1cccc(O)c1 | inactive: 0.685
Cc1cccc(OCC(=O)OC2CN3CCC2CC3)c1 (stereo unspecified) | inactive: 0.765
Cc1cc(C)cc(OP(C)(=O)Nc2ccc(C)cc2C)c1 (stereo unspecified) | inactive: 0.671
CCCOP(=S)(Nc1nc(N)cc(=O)[nH]1)OCCC | inactive: 0.687
Cc1ccc(C)c(NP(C)(=O)Oc2ccccc2)c1 (stereo unspecified) | inactive: 0.73
CP(=O)(Nc1cccc(Br)c1)Oc1ccccc1 (stereo unspecified) | inactive: 0.673
Cc1cc(C)cc(OP(C)(=O)Nc2ccccn2)c1 (stereo unspecified) | inactive: 0.706
Cc1ccc(NCCc2c([N+](=O)[O-])cc([N+](=O)[O-])cc2[N+](=O)[O-])cc1 | inactive: 0.637
CCOP(=O)(Nc1cccc2ccccc12)OCC | inactive: 0.659
CCOP1(=S)c2c(C)nn(CCC#N)c2N=C(c2ccccc2F)N1C (stereo unspecified) | inactive: 0.626
O=C(O)c1cccc(Nc2c([N+](=O)[O-])cc([N+](=O)[O-])cc2[N+](=O)[O-])c1 | inactive: 0.691
O=P(Nc1nccs1)(c1ccccc1)c1nc2ccccc2s1 (stereo unspecified) | inactive: 0.58
O=P(Nc1nccs1)(Oc1ccccc1)Oc1ccccc1 | inactive: 0.663
Nc1ccccc1[As](=O)(O)c1ccccc1 | inactive: 0.704
O=C(O)COc1ccc([As](=O)(O)O)cc1[N+](=O)[O-] | inactive: 0.664
NC(=O)Nc1ccc([As](=O)(O)O)cc1 | inactive: 0.682
CN(C)C(=O)c1cc([N+](=O)[O-])cc2c1-c1c(cc([N+](=O)[O-])cc1[N+](=O)[O-])C2=O | inactive: 0.627

Structure (SMILES) | OD600 absorbance
O=[N+]([O-])c1ccc2c(c1)nnn2O | inactive: 0.701
CC1=NCCc2c1[nH]c1ccccc21.O=[N+]([O-])c1cc([N+](=O)[O-])c(O)c([N+](=O)[O-])c1 | inactive: 0.648
Cc1ccc(NC(=NP(=O)(N2CCOCC2)N2CCOCC2)N2CCOCC2)cc1 | inactive: 0.71
N#CCCN(C(=O)COC(=O)C(O)(c1ccccc1)c1ccccc1)c1ccc(F)cc1 | inactive: 0.682
CCOP1(=S)c2c(C)nn(CCC#N)c2N=C(c2ccc(F)cc2)N1C (stereo unspecified) | inactive: 0.692
COc1cc(C2NCCC3(OCCO3)C2(C)C)cc(OC)c1OC.O=[N+]([O-])c1cc([N+](=O)[O-])c(O)c([N+](=O)[O-])c1 (stereo unspecified) | inactive: 0.659
Cc1nn(-c2ccccc2)c2c1P(=O)(N1CCOCC1)N(C)C(c1ccccc1)=N2 (stereo unspecified) | inactive: 0.673
CC1CCC(C(C)C)C(OP(=O)(Nc2ccccn2)c2ccccc2)C1 (stereo unspecified) | inactive: 0.607
Cc1ccc(C(=O)OC2CN3CCC2CC3)cc1 (stereo unspecified) | inactive: 0.648
O=C(/C=C/c1ccccc1)OC1CN2CCC1CC2 (stereo unspecified) | inactive: 0.658
CCCC1OP(=O)(Nc2ccccc2)OCC1CC (stereo unspecified) | inactive: 0.724
O=[N+]([O-])c1cc([N+](=O)[O-])c(Nc2nnnn2CCO)c([N+](=O)[O-])c1 | inactive: 0.687
CN(C)C1(CNC(=O)c2ccc(S(C)(=O)=O)cc2)CCCCC1 | inactive: 0.692
CCOC(=O)C(CC)C1=NC(C)(C)Cc2ccccc21.O=[N+]([O-])c1cc([N+](=O)[O-])c(O)c([N+](=O)[O-])c1 (stereo unspecified) | inactive: 0.668
O=P1(Nc2ncccn2)COc2ccccc2OC1 | inactive: 0.699
COc1ccccc1OP(C)(=O)Nc1c(C)cccc1C (stereo unspecified) | inactive: 0.688
CN1CCCCC1COC(=O)C1(O)c2ccccc2CCc2ccccc21 (stereo unspecified) | inactive: 0.714
O=P1(Nc2ccc(Br)cn2)COc2ccccc2OC1 | inactive: 0.677
NS(=O)(=O)c1cccc(NC(=O)COC(=O)C(O)(c2ccccc2)c2ccccc2)c1 | inactive: 0.663
O=[As](O)(c1cccs1)c1cccs1 | inactive: 0.694
Cc1ccc(OCC(=O)OC2CN3CCC2CC3)cc1 (stereo unspecified) | inactive: 0.73
CP(=O)(Nc1ccc(SC(F)(F)F)cc1)Oc1ccccc1 (stereo unspecified) | inactive: 0.661
Nc1cccc([As](=O)(O)c2ccccc2)c1 | inactive: 0.672
CCCOc1ccc(NP(C)(=O)Oc2ccc(Cl)cc2)cc1 (stereo unspecified) | inactive: 0.7

Structure (SMILES) | OD600 absorbance
CCOP(=O)(Nc1ccc(C)cn1)OCC | inactive: 0.605
O=P1(Nc2ccccn2)COc2ccccc2OC1 | inactive: 0.713
O=[N+]([O-])c1cc([N+](=O)[O-])c(-n2nnc3ccccc32)c([N+](=O)[O-])c1 | inactive: 0.703
Clc1n[nH]nc1-c1nn[nH][15n]1 | inactive: 0.693
CC(C)(C)C(=O)NC(Sc1ncccn1)C(Cl)(Cl)Cl (stereo unspecified) | inactive: 0.624
COc1ccccc1CNC(=O)COC(=O)C(O)(c1ccccc1)c1ccccc1 | inactive: 0.688
O=[N+]([O-])c1cc([N+](=O)[O-])c(-c2cnn(-c3ccccc3)c2)c([N+](=O)[O-])c1 | inactive: 0.606
O=[As](O)(c1ccccc1Br)c1ccccc1Br | inactive: 0.678
Cc1nc2ccc3ccccc3c2s1.O=[N+]([O-])c1cc([N+](=O)[O-])c(O)c([N+](=O)[O-])c1 | inactive: 0.695
CC1(CBr)Cn2c(nc3ccccc3c2=O)S1 (stereo unspecified) | inactive: 0.637
CC1OP(=O)(Oc2ccccc2)C(O)C(O)C1N=[N+]=[N-] (stereo unspecified) | inactive: 0.721
Cc1cccc(C)c1OP(C)(=O)Nc1ccc(SC(F)(F)F)cc1 (stereo unspecified) | inactive: 0.68
CP(=O)(Nc1ccc(SC(F)(F)F)cc1)Oc1ccc(Cl)cc1 (stereo unspecified) | inactive: 0.6
COP1(=S)c2c(C)nn(CCC#N)c2N=C(c2ccc(F)cc2)N1C (stereo unspecified) | inactive: 0.628
CP(=O)(Oc1ccccc1)OC(c1ccccc1)C(F)(F)F (stereo unspecified) | inactive: 0.693
CCc1ccc(OP(C)(=O)N2CCN(c3ccc([N+](=O)[O-])cc3)CC2)cc1 (stereo unspecified) | inactive: 0.635
O=C(COc1ccccc1)OC1CN2CCC1CC2 (stereo unspecified) | inactive: 0.731
CP(=O)(NC(=O)Nc1ccccc1)Oc1ccccc1 (stereo unspecified) | inactive: 0.69
Cc1cc(C)cc(OP(C)(=O)Nc2ccc(SC(F)(F)F)cc2)c1 (stereo unspecified) | inactive: 0.698
O=C(Nc1ccncc1[N+](=O)[O-])c1ccc([N+](=O)[O-])cc1[N+](=O)[O-] | inactive: 0.635
CCOC(=O)c1ccc(NP(C)(=O)Oc2ccc(OC)cc2)cc1 (stereo unspecified) | inactive: 0.677
CCOC(=O)c1ccc(NC(=O)C(C)(CCl)SC)cc1 (stereo unspecified) | inactive: 0.673
O=[N+]([O-])c1cc([N+](=O)[O-])c(O)c([N+](=O)[O-])c1.c1ccc(Oc2ccncc2)cc1 | inactive: 0.617
O=C(OC1CN2CCC1CC2)c1cccc([N+](=O)[O-])c1 (stereo unspecified) | inactive: 0.683

Structure (SMILES) | OD600 absorbance
CCOP(C)(=S)SCC(=O)NC(C)C(=O)O (stereo unspecified) | inactive: 0.729
CP(=O)(Nc1ccccn1)Oc1ccc(Cl)cc1 (stereo unspecified) | inactive: 0.675
CCC(C)N(CC(C)C)C(=S)SC(NC(C)=O)C(Cl)(Cl)Cl (stereo unspecified) | inactive: 0.693
CC1CCNP(=O)(N(CCCl)CCCl)O1 (stereo unspecified) | inactive: 0.676
CCOC(=O)Nc1ccc([As](=O)(O)O)c(O)c1 | inactive: 0.699
CCCCOc1ccc(C(=O)NCC2(N3CCCCC3)CCCCC2)cc1OC | inactive: 0.66
COc1ccc(NC(=NP(=O)(N2CCOCC2)N2CCOCC2)N2CCOCC2)cc1 | inactive: 0.719
Cc1cc(SC(NC(=O)c2ccccc2)C(Cl)(Cl)Cl)nc(C(C)C)n1 (stereo unspecified) | inactive: 0.716
CCOC(=O)Nc1cccc([As](=O)(O)O)c1 | inactive: 0.677
CP(=S)(Nn1cnnc1)Oc1ccccc1 (stereo unspecified) | inactive: 0.791
CP(=O)(Nc1ccccc1Br)Oc1ccccc1 (stereo unspecified) | inactive: 0.644
O=[N+]([O-])c1ccc(Nc2ccc(Oc3ccc([N+](=O)[O-])cc3[N+](=O)[O-])cc2)c([N+](=O)[O-])c1 | inactive: 0.71
O=P(Nc1ccccn1)(c1cccc2ccccc12)c1cccc2ccccc12 | inactive: 0.695
Cc1cc(SC(NC=O)C(Cl)(Cl)Cl)ncn1 (stereo unspecified) | inactive: 0.723
COc1ccccc1OP(C)(=O)Nc1ccccc1 (stereo unspecified) | inactive: 0.706
O=[As](O)(c1ccc(O)cc1)c1ccccc1O | inactive: 0.686
C[As](=O)(O)c1cccc(C(=O)O)c1 | inactive: 0.643
COc1cc(C(=O)NCC2(N3CCOCC3)CCCCC2)ccc1OCC(C)C | inactive: 0.668
O=[N+]([O-])c1ccc(-c2cc([N+](=O)[O-])c(O)c([N+](=O)[O-])c2)cc1 | inactive: 0.641
CCCC(C)(O)C1CC23C=CC1(OC)C1Oc4c(O)ccc5c4[C@@]12CCN(C)[C@@H]3C5 (stereo partly specified) | inactive: 0.732
O=[N+]([O-])c1cc([N+](=O)[O-])c(Nc2cccnc2)c([N+](=O)[O-])c1 | inactive: 0.537
Cc1ccc2nc3c(c(C)c2c1)CC(C(Cl)Cl)S3 (stereo unspecified) | inactive: 0.686
O=[N+]([O-])c1ccc2c(c1)C=Nc1ccccc1O2 | inactive: 0.703
CC(C)(C)c1ccc(OP(C)(=O)Nc2ccc(SC(F)(F)F)cc2)cc1 (stereo unspecified) | inactive: 0.677
